Measured values from several laboratories, pooled; numbers as filed in NIAID ChemDB.

Shared fields: toxicity to cultured cells; cells: MT-4; read-out: CC50

CCn: concentration that lowers growth or viability of the cells by n%. Two numbers with a dash give a range or band. Rows are shuffled and stem from different studies.

{"SMILES": "CNc1ncnc2c1ncn2[C@@H]1S[C@@H](CO)C[C@@H]1N=[N+]=[N-]", "value": ">100 µM"}
{"SMILES": "O=C(O)c1cc(O)c(O)c(O)c1", "value": "80 µg/mL"}
{"SMILES": "CC(C)=CCN1Cc2cccc3[nH]c(=O)n(c23)CC1C", "value": ">870 µM"}
{"SMILES": "Cc1cn([C@@H]2S[C@@H](CO)C[C@@H]2N=[N+]=[N-])c(=O)[nH]c1=O", "value": ">100 µM"}
{"SMILES": "CCOC(=O)c1cc2c3ccccc3c3ccc(N)cc3n2c1C", "value": "21 µM"}
{"SMILES": "CC(C)(C)NC(=O)[C@@H]1C[C@@H]2CCCC[C@@H]2CN1C[C@@H](OC(=O)COc1ccc(CC(NC(=O)OC(C)(C)C)C(=O)OC(C)(C)C)cc1)[C@H](Cc1ccccc1)NC(=O)[C@H](CC(N)=O)NC(=O)c1ccc2ccccc2n1", "value": ">0.01 µM"}
{"SMILES": "Nc1nc2c(ncn2[C@@H]2C[C@H](O)[C@H](CO)O2)c(=O)[nH]1", "value": ">100 µM"}
{"SMILES": "CCCCc1csc(NC(=S)NCCc2ccccc2)n1", "value": "313 µM"}
{"SMILES": "Nc1ccn(CCN2C(=O)CSC2COCc2ccccc2)c(=O)n1", "value": "~100 µM"}
{"SMILES": "CC(=O)c1cc(-c2cccc([N+](=O)[O-])c2)n(-c2ccccc2)c1C", "value": ">300 µM"}
{"SMILES": "CCOC(=O)c1cc2cc(Cl)ccc2n1CC(O)CNc1ccccc1C(=O)OC", "value": "39 µM"}
{"SMILES": "Nc1ccn([C@H]2CC[C@@H](CO)O2)c(=O)n1", "value": "41.4 µM"}
{"SMILES": "Nc1ncnc2c1ncn2[C@@H]1O[C@H](CO)[C@H]1CO", "value": ">30 µg/mL"}
{"SMILES": "C=C(C)[C@@H]1CC[C@]2(C(=O)NCCCCCCNC(C)=O)CC[C@]3(C)[C@H](CC[C@@H]4[C@@]5(C)CC[C@H](OC(=O)CC(C)(C)C(=O)O)C(C)(C)[C@@H]5CC[C@]43C)[C@@H]12", "value": "7.5 µM"}
{"SMILES": "O=C(O)Cc1ccc(O)c(O)c1", "value": "142 µg/mL"}
{"SMILES": "CCn1cc(C(=O)O)c(=O)c2cc(F)c(N3CCN(c4ccccc4OC)CC3)c(OC(F)F)c21", "value": "3.2 µM"}
{"SMILES": "Fc1cccc(F)c1CCNC(=S)Nc1ncccn1", "value": ">5 µg/mL"}
{"SMILES": "CCc1nc(NCN2C(=O)C(=Nc3ccc(S(=O)(=O)Nc4ncnc(OC)c4OC)cc3)c3cc(C)ccc32)nc(N)c1-c1ccc(Cl)cc1", "value": "8.5 µg/mL"}
{"SMILES": "O=C1C=CC(=C(c2ccc(O)cc2)c2ccc(O)cc2)C=C1", "value": ">100 µg/mL"}
{"SMILES": "C=C(C)[C@@H]1CC[C@]2(C(=O)NCCCCCCCC(=O)N[C@@H](CC(C)C)[C@H](O)CC(=O)O)CC[C@]3(C)[C@H](CC[C@@H]4[C@@]5(C)CC[C@H](OC(=O)CC(C)(C)C(=O)O)C(C)(C)[C@@H]5CC[C@]43C)[C@@H]12", "value": ">10 µM"}
{"SMILES": "COc1cccnc1NC(=S)NCCc1c(F)cccc1F", "value": "4.61 µg/mL"}
{"SMILES": "Cc1ccc(C(C)C)c2oc(=O)c(C(=O)/C=C/c3ccc(N(C)C)cc3)c(O)c12", "value": "106 µg/mL"}
{"SMILES": "COc1ncnc(NS(=O)(=O)c2ccc(N=C3C(=O)N(CN(C)C)c4ccccc43)cc2)c1OC", "value": "2.5 µg/mL"}
{"SMILES": "COc1ncnc2c1ncn2C(C)CO", "value": ">100 µM"}
{"SMILES": "O=C(O)/C=C/c1ccc(O)c(O)c1", "value": "88 µg/mL"}
{"SMILES": "[N-]=[N+]=NC[C@H]1[C@H](n2cnc3c(N)ncnc32)O[C@@H]1CO", "value": "80 µg/mL"}
{"SMILES": "S=C(NCCc1ccccn1)Nc1nccs1", "value": "76 µM"}
{"SMILES": "COc1ccc(/C=C/C(=O)c2c(O)c3cc(Cl)c(C)cc3oc2=O)cc1", "value": ">33.8 µg/mL"}
{"SMILES": "O=C1c2ccccc2N(Cc2ccc(Cl)cc2)S(=O)(=O)N1Cc1ccc(Cl)cc1", "value": "21.6–22.8 µM"}
{"SMILES": "COc1cccc(-c2cc(C(C)=O)c(C)n2-c2cccc(N)c2)c1", "value": "10.2 µM"}
{"SMILES": "Nc1ncnc2c1ncn2[C@@H]1O[C@H](CO)[C@]1(O)CO", "value": ">100 µg/mL"}
{"SMILES": "Fc1cccc(F)c1CCNC(=S)Nc1cccc(Br)n1", "value": ">5 µg/mL"}
{"SMILES": "COc1ccc(Cn2c(-c3ccccc3F)nc3c(OC)cccc32)cc1", "value": "14.8 µg/mL"}
{"SMILES": "CCOC(=O)c1csc(NC(=S)NCCc2ccccc2)n1", "value": "60 µM"}
{"SMILES": "Cc1[nH]c2ccccc2c1CC(=O)N[C@@H](Cc1ccccc1)C(=O)N(C)c1ccccc1", "value": ">11.56 µM"}
{"SMILES": "[N-]=[N+]=N[C@H]1C[C@H](CO)S[C@@H]1n1cnc2c(N)ncnc21", "value": ">100 µM"}
{"SMILES": "CC(C)C(NC(=O)OC(C)(C)C)C(=O)O[C@@H](C[C@@H](Cc1ccccc1)C(=O)N[C@H]1c2ccccc2C[C@H]1OC(=O)C(NC(=O)OC(C)(C)C)C(C)C)CN1CCN(Cc2cccnc2)C[C@H]1C(=O)NC(C)(C)C", "value": "0.08 µM"}
{"SMILES": "Nc1ncnc2c1ncn2[C@H]1C=C[C@@H](CO)[C@@H]1CO", "value": ">100 µg/mL"}
{"SMILES": "C=C(C)[C@@H]1CC[C@]2(C(=O)N[C@H](CC(C)C)C(=O)O)CC[C@]3(C)[C@H](CC[C@@H]4[C@@]5(C)CC[C@H](OC(=O)C(C)(C)CC(=O)O)C(C)(C)[C@@H]5CC[C@]43C)[C@@H]12", "value": "9 µM"}
{"SMILES": "CCOc1cccc(CCNC(=S)Nc2nccs2)c1", "value": "91 µM"}
{"SMILES": "Nc1ncnc2c1ncn2[C@H]1C[C@](N)(CO)CO1", "value": ">100 µg/mL"}
{"SMILES": "O=C1c2ccccc2N(Cc2ccc(Cl)c(Cl)c2)S(=O)(=O)N1Cc1ccccc1", "value": "27.7–27.8 µM"}
{"SMILES": "COCCOCCOCCOCCOCCOCCOCCOCCOCCOCCOCCOCCOCCOCCOCCOCCOCCOCCOCCOCCOCCOCCOCCOCCOCCOCCOCCOCCOCCOCCOCCOCCOCCOCCOCCOCCOCCOCCOCCOCCOCCOCCOCCOCCOC(=O)CCC(=O)O[C@H](CN1C[C@H]2CCCC[C@H]2C[C@H]1C(=O)NC(C)(C)C)[C@H](Cc1ccccc1)NC(=O)[C@H](CC(N)=O)NC(=O)c1ccc2ccccc2n1", "value": ">0.01 µM"}
{"SMILES": "Fc1cccc(NC(=S)NCCc2c(F)cccc2F)n1", "value": ">25 µg/mL"}
{"SMILES": "COc1ccc(/C=C/C(=O)c2c(O)c3c(C)ccc(C(C)C)c3oc2=O)cc1OC", "value": "58.15 µg/mL"}
{"SMILES": "O=c1cc(CCl)nc2c3ncn([C@H]4C[C@H](O)[C@@H](COP(=O)(O)O)O4)c3ncn12", "value": ">1000 µM"}
{"SMILES": "CCOC(=O)c1cn(CC(O)CNc2ccccc2C(=O)OC)cc1-c1ccccc1", "value": "37 µM"}
{"SMILES": "CCOC(=O)c1cc(-c2cccc(OC)c2)n(-c2cccc(Br)c2)c1C", "value": "10 µM"}
{"SMILES": "CC(C)C(N)C(=O)O[C@@H](C[C@@H](Cc1ccccc1)C(=O)N[C@H]1c2ccccc2C[C@H]1OC(=O)C(N)C(C)C)CN1CCN(Cc2cccnc2)C[C@H]1C(=O)NC(C)(C)C", "value": "0.08 µM"}
{"SMILES": "CCN1C[C@H](C)n2c(c(O)c3c(=O)n(Cc4ccc(F)c(Cl)c4)nc(C(=O)NC)c32)C1=O", "value": "12 µM"}
{"SMILES": "C=C(C)[C@@H]1CC[C@]2(C(=O)NCCCCCCCCCNC(C)=O)CC[C@]3(C)[C@H](CC[C@@H]4[C@@]5(C)CC[C@H](OC(=O)CC(C)(C)C(=O)O)C(C)(C)[C@@H]5CC[C@]43C)[C@@H]12", "value": "7.4 µM"}
{"SMILES": "COc1cccc2c1nc(-c1ccccc1F)n2Cc1ccc(C)cc1", "value": "11.7 µg/mL"}
{"SMILES": "COc1ccc(/C=C/C(=O)c2c(O)c3cc(Cl)c(C)cc3oc2=O)cc1OC", "value": "71.4 µg/mL"}
{"SMILES": "Cc1cn(N2CC[C@H](CO)[C@H]2CO)c(=O)[nH]c1=O", "value": ">10 µg/mL"}
{"SMILES": "CC(C)CCC[C@@H](C)[C@H]1CC[C@H]2[C@@H]3CC[C@H]4C[C@@H](CCC=C(c5cc(Cl)c(O)c(C(=O)O)c5)c5cc(Cl)c(O)c(C(=O)O)c5)CC[C@]4(C)[C@H]3CC[C@]12C", "value": ">125 µg/mL"}
{"SMILES": "O=C1c2ccccc2N(Cc2ccccc2Cl)S(=O)(=O)N1COCc1ccccc1", "value": "23.4–32 µM"}
{"SMILES": "COc1cccc2c1nc(-c1ccccc1F)n2Cc1ccc(Cl)cc1", "value": ">17.9 µg/mL"}
{"SMILES": "O=C(O)Cc1cc(O)ccc1O", "value": "101 µg/mL"}
{"SMILES": "O=C1c2ccccc2N(Cc2ccccc2Cl)S(=O)(=O)N1Cc1ccccc1", "value": "19.9–22.7 µM"}
{"SMILES": "N#C[C@]1(CO)O[C@@H](n2cnc3c(=O)[nH]c(N)nc32)C[C@@H]1O", "value": ">0.034 µM"}
{"SMILES": "Cc1nc(NC(=S)NCCc2c(F)cccc2F)ccc1Br", "value": ">5 µg/mL"}
{"SMILES": "CCOC(=O)c1cc2c3cc(OC)ccc3c3c(N)cccc3n2c1C", "value": ">200 µM"}
{"SMILES": "Nc1ncnc2c1ncn2[C@H]1CO[C@@H](CCP(=O)(O)O)O1", "value": ">100 µg/mL"}
{"SMILES": "Nc1nc2c(ncn2COC(CO)CO)c(=O)[nH]1", "value": ">10 µM"}
{"SMILES": "O=S1(=O)N=C(OCc2ccccc2)c2ccccc2N1Cc1ccccc1", "value": "100 µM"}
{"SMILES": "COc1ccc(/C=C/C(=O)c2c(O)c3c(C)ccc(C(C)C)c3oc2=O)cc1", "value": ">125 µg/mL"}
{"SMILES": "Fc1cccc(F)c1CCNC(=S)Nc1ccc(Br)cn1", "value": "67 µM"}
{"SMILES": "Nc1ncnc2c1ncn2[C@@H]1C[C@@H](O)[C@@H](O)[C@H]1O", "value": "1 µM"}
{"SMILES": "CNc1ncnc2c1ncn2[C@H]1S[C@H](CO)C[C@@H]1N=[N+]=[N-]", "value": ">100 µM"}
{"SMILES": "CCOC(=O)c1cc2c3cc(OC)ccc3c3ccc(Cl)cc3n2c1C", "value": ">200 µM"}
{"SMILES": "COc1cccc(CCNC(=S)Nc2nccs2)c1", "value": "143 µM"}
{"SMILES": "[N-]=[N+]=N[C@H]1C[C@H](CO)S[C@H]1n1cnc2c(Cl)ncnc21", "value": ">100 µM"}
{"SMILES": "CC(CO)n1cnc2c(Cl)nc(N)nc21", "value": ">100 µM"}
{"SMILES": "O=c1[nH]cnc2c1ncn2[C@@H]1O[C@H](CO)[C@H]1CO", "value": ">300 µg/mL"}
{"SMILES": "S=C(NCCc1cccc(Oc2ccccc2)c1)Nc1nccs1", "value": "14 µM"}
{"SMILES": "Cc1cc2oc(=O)c(C(=O)/C=C/c3ccccc3)c(O)c2cc1Cl", "value": "8.56 µg/mL"}
{"SMILES": "CCOC(=O)c1cc2c3cccc(OC)c3c3ccc(N)cc3n2c1C", "value": ">200 µM"}
{"SMILES": "CC(=O)OC[C@H]1O[C@@H](n2c3c(c(-c4ccc(Cl)cc4)c(C#N)c2=S)Cc2ccccc2-3)[C@H](OC(C)=O)[C@@H](OC(C)=O)[C@H]1OC(C)=O", "value": "8.76 µM"}
{"SMILES": "Nc1ccn(C2C[C@](N)(CO)CO2)c(=O)n1", "value": ">100 µg/mL"}
{"SMILES": "CCCOc1cccc(CCNC(=S)Nc2nccs2)c1", "value": "75 µM"}
{"SMILES": "CCOC(=O)c1cn(CC(O)CNc2ccccc2N)cc1-c1ccccc1", "value": "0.8 µM"}
{"SMILES": "Oc1cccc(O)c1O", "value": "98 µg/mL"}
{"SMILES": "Cc1ccc(C(C)C)c2oc(=O)c(C(=O)/C=C/c3ccccc3)c(O)c12", "value": "12.75 µg/mL"}
{"SMILES": "[N-]=[N+]=N[C@@]1(CO)COC(n2ccc(N)nc2=O)C1", "value": ">100 µg/mL"}
{"SMILES": "CCN1C[C@H](C)n2c(c(O)c3c(=O)n(Cc4ccc(F)c(Cl)c4)nc(N4CCN(C)S4(=O)=O)c32)C1=O", "value": ">8 µM"}

Again, the opening 11 rows:

SMILES,value
CNc1ncnc2c1ncn2[C@@H]1S[C@@H](CO)C[C@@H]1N=[N+]=[N-],>100 µM
O=C(O)c1cc(O)c(O)c(O)c1,80 µg/mL
CC(C)=CCN1Cc2cccc3[nH]c(=O)n(c23)CC1C,>870 µM
Cc1cn([C@@H]2S[C@@H](CO)C[C@@H]2N=[N+]=[N-])c(=O)[nH]c1=O,>100 µM
CCOC(=O)c1cc2c3ccccc3c3ccc(N)cc3n2c1C,21 µM
CC(C)(C)NC(=O)[C@@H]1C[C@@H]2CCCC[C@@H]2CN1C[C@@H](OC(=O)COc1ccc(CC(NC(=O)OC(C)(C)C)C(=O)OC(C)(C)C)cc1)[C@H](Cc1ccccc1)NC(=O)[C@H](CC(N)=O)NC(=O)c1ccc2ccccc2n1,>0.01 µM
Nc1nc2c(ncn2[C@@H]2C[C@H](O)[C@H](CO)O2)c(=O)[nH]1,>100 µM
CCCCc1csc(NC(=S)NCCc2ccccc2)n1,313 µM
Nc1ccn(CCN2C(=O)CSC2COCc2ccccc2)c(=O)n1,~100 µM
CC(=O)c1cc(-c2cccc([N+](=O)[O-])c2)n(-c2ccccc2)c1C,>300 µM
CCOC(=O)c1cc2cc(Cl)ccc2n1CC(O)CNc1ccccc1C(=O)OC,39 µM